Source: PubChem BioAssay AID1224833 (University of Georgia, 2016)
Screen: 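Host factors restraining rotavirus as candidate antiviral genes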 (primary screen). Cells: monkey MA104 kidney cells. Reagents: siRNA pool against human genes, 50 nM. Timing: 48 h knock-down before infection; read 24 h after infection. Treatment: infection with rotavirus strain RV3 two days after transfection; infectious dose for this stage not given. Measured: 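Rotavirus antigen per well by fluorescent immunoassay, normalised to non-targeting control wells on each plate and given as a standard z-score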. Reading the numbers: z-score vs non-targeting control: higher = more rotavirus replication than with non-targeting control. Call rule: In these data the active calls have z-score vs non-targeting control at about -1 or lower, or at about 1 or higher. Calls: active = z-score beyond 1 either way; inactive = z-score within 1 of zero.
This is a random part of about 12,000 deposited reagents. About 5,600 of all reagents (46%) were called active. 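Active calls cover z-scores past 1 in both directions, so they include lowered as well as raised rotavirus replication.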 No sequences are given here.

The opening 2 entries as a preview:
| Gene | z-score vs non-targeting control | Outcome |
| --- | --- | --- |
| DNAJC17 (DnaJ heat shock protein family (Hsp40) member C17) | 0.787 | inactive |
| ERICH6 (glutamate rich 6) | 1.06 | active |

The listing, from the first entry:
| Gene | z-score vs non-targeting control | Outcome |
| --- | --- | --- |
| DNAJC17 (DnaJ heat shock protein family (Hsp40) member C17) | 0.787 | inactive |
| ERICH6 (glutamate rich 6) | 1.06 | active |
| CHCHD1 (coiled-coil-helix-coiled-coil-helix domain containing 1) | -0.705 | inactive |
| TNFSF8 (TNF superfamily member 8) | -0.497 | inactive |
| SLC8B1 | -1.13 | active |
| UBC (ubiquitin C) | -5.76 | active |
| TMEM207 (transmembrane protein 207) | -1.35 | active |
| NDN (necdin, MAGE family member) | -0.958 | inactive |
| FAM133A (family with sequence similarity 133 member A) | -0.669 | inactive |
| HSPA1A (heat shock protein family A (Hsp70) member 1A) | -1.19 | active |
| AFAP1 (actin filament associated protein 1) | -1.95 | active |
| C1QL1 (complement C1q like 1) | 0.248 | inactive |
| ATP11AUN (ATP11A upstream neighbor lncRNA) | -0.48 | inactive |
| NOMO2 (NODAL modulator 2) | -1.21 | active |
| OR2K2 (olfactory receptor family 2 subfamily K member 2) | -0.629 | inactive |
| SARAF (store-operated calcium entry associated regulatory factor) | 1.07 | active |
| ETV3L (ETS variant transcription factor 3 like) | -0.527 | inactive |
| SLC4A7 | -1.71 | active |
| CRLF1 (cytokine receptor like factor 1) | -1.34 | active |
| CD200R1L (CD200 receptor 1 like) | 0.737 | inactive |
| FATE1 (fetal and adult testis expressed 1) | 0.333 | inactive |
| COCH (cochlin) | -0.784 | inactive |
| RBM34 (RNA binding motif protein 34) | 1.25 | active |
| NBPF1 (NBPF member 1) | 1.37 | active |
| DEF8 (differentially expressed in FDCP 8 homolog) | 2.29 | active |
| PCDHB3 (protocadherin beta 3) | -1.23 | active |
| HOXC12 (homeobox C12) | -0.67 | inactive |
| CRISP2 (cysteine rich secretory protein 2) | 0.847 | inactive |
| UBQLN3 (ubiquilin 3) | 0.695 | inactive |
| CYP2A13 (cytochrome P450 family 2 subfamily A member 13) | 1.16 | active |
| TDRP (testis development related protein) | 0.504 | inactive |
| BAIAP2 (BAR/IMD domain containing adaptor protein 2) | -2.11 | active |
| SELP (selectin P) | -1.36 | active |
| XCR1 (X-C motif chemokine receptor 1) | -1.2 | active |
| TMUB1 (transmembrane and ubiquitin like domain containing 1) | 0.426 | inactive |
| PLEKHM3 (pleckstrin homology domain containing M3) | -1.69 | active |
| SCO2 (synthesis of cytochrome C oxidase 2) | -0.387 | inactive |
| TMEM42 (transmembrane protein 42) | 0.479 | inactive |
| TMEM217 (transmembrane protein 217) | 0.393 | inactive |
| ANKRD2 (ankyrin repeat domain 2) | -2.24 | active |
| WNT9A (Wnt family member 9A) | -1.86 | active |
| IRGQ (immunity related GTPase Q) | -0.826 | inactive |
| NXN (nucleoredoxin) | -0.947 | inactive |
| GOLIM4 (golgi integral membrane protein 4) | 0.738 | inactive |
| SF3B1 (splicing factor 3b subunit 1) | -1.76 | active |
| NCF2 (neutrophil cytosolic factor 2) | 0.587 | inactive |
| TNNT2 (troponin T2, cardiac type) | -1.22 | active |
| RAD50 (RAD50 double strand break repair protein) | -0.74 | inactive |
| RNF167 (ring finger protein 167) | -0.622 | inactive |
| MDH1 (malate dehydrogenase 1) | -0.844 | inactive |
| MSANTD1 (Myb/SANT DNA binding domain containing 1) | -2.48 | active |
| TRIM16L (tripartite motif containing 16 like (pseudogene)) | 1.16 | active |
| PADI3 (peptidyl arginine deiminase 3) | 1.62 | active |
| MPPED1 (metallophosphoesterase domain containing 1) | -0.515 | inactive |
| KHDC4 (KH domain containing 4, pre-mRNA splicing factor) | -0.418 | inactive |
| MON1A (MON1 vesicular trafficking associated A) | 0.86 | inactive |
| PRRG3 (proline rich and Gla domain 3) | 0.393 | inactive |
| ARHGEF3 (Rho guanine nucleotide exchange factor 3) | -0.808 | inactive |
| DRC4 (dynein regulatory complex subunit 4) | 1.83 | active |
| MRPL17 (mitochondrial ribosomal protein L17) | -0.92 | inactive |
| SLC5A7 | -2.11 | active |
| TLR7 (toll like receptor 7) | -0.832 | inactive |
| UBXN8 (UBX domain protein 8) | -1.32 | active |
| CYP2F1 (cytochrome P450 family 2 subfamily F member 1) | -0.478 | inactive |
| CNNM2 | -0.975 | inactive |
| RASGRP4 (RAS guanyl releasing protein 4) | -0.778 | inactive |
| ASNSD1 (asparagine synthetase domain containing 1) | -2.26 | active |
| TBC1D3 (TBC1 domain family member 3) | 0.74 | inactive |
| COG2 (component of oligomeric golgi complex 2) | 0.115 | inactive |
| ORC4 (origin recognition complex subunit 4) | -0.405 | inactive |
| SLC39A11 | -0.732 | inactive |
| MIS12 (MIS12 kinetochore complex component) | 0.118 | inactive |
| GPR137B (G protein-coupled receptor 137B) | -1.82 | active |
| XPO5 (exportin 5) | -1.22 | active |
| ENTPD4 (ectonucleoside triphosphate diphosphohydrolase 4) | -1.84 | active |
| ASXL2 (ASXL transcriptional regulator 2) | -0.335 | inactive |
| ZDHHC12 (zDHHC palmitoyltransferase 12) | -0.699 | inactive |
| PCP4 (Purkinje cell protein 4) | 1.84 | active |
| USF2 (upstream transcription factor 2, c-fos interacting) | -1.47 | active |
| PARK7 (Parkinsonism associated deglycase) | -0.811 | inactive |
| PIANP (PILR alpha associated neural protein) | -0.903 | inactive |
| SPATA6L (spermatogenesis associated 6 like) | -2.48 | active |
| FNDC3A (fibronectin type III domain containing 3A) | 1.01 | active |
| SYNRG (synergin gamma) | -0.204 | inactive |
| PDLIM3 (PDZ and LIM domain 3) | 1.1 | active |
| RPL39L (ribosomal protein L39 like) | 0.0591 | inactive |
| MBOAT7 | 0.591 | inactive |
| HOXC10 (homeobox C10) | 0.602 | inactive |
| IGSF8 (immunoglobulin superfamily member 8) | -1.45 | active |
| KRTAP13-2 (keratin associated protein 13-2) | 0.659 | inactive |
| LEMD1 (LEM domain containing 1) | -2.07 | active |
| RGS14 (regulator of G protein signaling 14) | -1.74 | active |
| OR10H4 (olfactory receptor family 10 subfamily H member 4) | -3.78 | active |
| GBP2 (guanylate binding protein 2) | 0.125 | inactive |
| DHRS7B (dehydrogenase/reductase 7B) | -1.64 | active |
| DPH5 (diphthamide biosynthesis 5) | 1.09 | active |
| PLAGL2 (PLAG1 like zinc finger 2) | 1.09 | active |
| CDC123 (cell division cycle 123) | 0.427 | inactive |
| SLC9C2 | 0.0108 | inactive |
| SEPHS2 (selenophosphate synthetase 2) | -1.18 | active |
| MBD3L2 (methyl-CpG binding domain protein 3 like 2) | -0.483 | inactive |
| REV1 (REV1 DNA directed polymerase) | -0.968 | inactive |
| EPM2AIP1 (EPM2A interacting protein 1) | -1.78 | active |
| NGRN (neugrin, neurite outgrowth associated) | -0.978 | inactive |
| XPO1 (exportin 1) | -1.87 | active |
| NACC2 (NACC family member 2) | 0.105 | inactive |
| HSFX1 (heat shock transcription factor family, X-linked 1) | -0.346 | inactive |
| LCMT2 (leucine carboxyl methyltransferase 2) | 0.503 | inactive |
| EXTL3 (exostosin like glycosyltransferase 3) | -0.639 | inactive |
| ZNF165 (zinc finger protein 165) | 0.555 | inactive |
